Measured values from several laboratories, pooled; numbers as filed in NIAID ChemDB.

All rows: growth or infection tests; agent: Hepatitis C virus; read by: replicon; read-out: EC50

ECn is the concentration giving n% inhibition of infection, replication or growth. Lines come from different laboratories, so protocols vary. Two numbers with a dash give a range or band. Blank or dashed fields: not listed here.

smiles | strain or isolate | conditions | cell line | value
COc1ccc2c(c1)c(=O)c(-c1noc(Cc3ccccc3)n1)cn2CC1CCCCC1 | 1b | - | - | >10 µM
NC(=O)c1ccc(-c2ccc3nc(NCc4ccc(F)cc4)nc(NCC(F)(F)F)c3n2)cc1 | - | - | - | <0.1 µM
O=C(N/N=C/c1ccccc1OS(=O)(=O)c1ccc(C(F)(F)F)cc1)c1ccccc1Cl | - | - | Huh7 | <5 µM
COc1cc2c(=O)c(-c3nnc(Cc4ccc(Cl)cc4)o3)cn(Cc3ccc(Cl)cc3)c2cc1OC | 1b | - | - | >10 µM
CNC(=O)c1c(-c2ccc(F)cc2)oc2ccc(OC(C)C)cc12 | - | - | Huh7 | <30 µM
Cc1ccc(-n2ncc3c(NC(=O)Nc4ccc(Br)cc4)ncnc32)c(C)c1 | - | - | HUH 9B | 1–10 µM
CCOc1nc(NCc2ccc(F)cc2)nc2ccc(-c3ccc4c(c3)CC(=O)N4)nc12 | - | - | - | <0.1 µM
CSc1cccc(F)c1-c1cc(-c2cccc(NC(=O)C(Cl)Cl)c2)on1 | - | - | - | ≤10 µM
CNC(=O)c1c(-c2ccc(F)cc2)oc2cc(N(C)C)c(OC(C)C)cc12 | - | - | Huh7 | <1 µM
CCOc1nc(NCc2cccc(Cl)c2F)nc2ccc(-c3ccc(F)cc3)nc12 | - | - | - | <0.1 µM
CC1CCC(C(=O)N(c2cc(-c3ccc(NC(=O)c4cscn4)cc3)sc2C(=O)[O-])C(C)C)CC1.C[NH2+]C[C@H](O)[C@@H](O)[C@H](O)[C@H](O)CO | 1a | - | - | <0.5 µM
CCCCCc1ccc(S(=O)(=O)Oc2ccccc2/C=N/NC(=O)Cc2cccc(OC)c2)cc1 | - | - | Huh7 | <5 µM
O=C(Nc1cccc(-c2cc(-c3c(Cl)cccc3OCCN3CCOCC3)no2)c1)C(Cl)Cl | - | - | - | ≤10 µM
CN1CCN(c2cc3c(cc2F)c(=O)c(-c2noc(Cc4ccccc4)n2)cn3CC2CCCCC2)CC1 | 1b | - | - | <2 µM
COCC(C)N(C(=O)C1CCC(C)CC1)c1cc(-c2ccc(NC(=O)c3cscn3)cc2)sc1C(=O)O | 1b | - | - | <0.5 µM
Cc1cccc(C)c1-c1cc(-c2cccc(NC(=O)C(Cl)Cl)c2)on1 | - | - | - | ≤10 µM
CNC(=O)c1c(-c2ccc(F)cc2)oc2cc(S(=O)(=O)NC3CCC3)c(OC(C)C)cc12 | - | - | Huh7 | <30 µM
CC(C)Nc1nc(NCC(F)(F)F)nc2ccc(-c3ccc(F)cc3)nc12 | - | - | - | <0.1 µM
C=CC1CC1(NC(=O)[C@@H]1C[C@@H](OC(=O)N[C@H]2C[C@@H]2c2ccccc2)CN1C(=O)[C@@H](NC(=O)OC(C)(C)C)C(C)(C)C)C(=O)NS(=O)(=O)C1CC1 | 1b | - | Huh7 | 1–10 µM
C[C@@H]1CN(c2cc3c(cc2F)c(=O)c(-c2noc(C(C)(C)c4ccc(F)cc4)n2)cn3Cc2ccc(C(F)(F)F)cc2)C[C@H](C)N1 | 1b | - | - | <0.5 µM
CCOc1ccc(Nc2ncnc3c2cnn3-c2ccccc2Cl)cc1 | - | - | HUH 9B | >10 µM
CC1CCC(C(=O)N(c2cc(-c3ccc(NC(=O)c4ncco4)cc3)sc2C(=O)O)C(C)C)CC1 | 1b | - | - | <0.5 µM
O=C(Cc1ccc2ccccc2c1)N/N=C/c1ccccc1OS(=O)(=O)c1ccc(C(F)(F)F)cc1 | - | - | Huh7 | <5 µM
COC(=O)N[C@H](C(=O)N1CC2(CC2)C[C@H]1c1ncc(-c2ccc3c(c2)C(F)(F)c2cc(-c4ccc5nc([C@@H]6[C@H]7CC[C@H](C7)N6C(=O)[C@@H](NC(=O)OC)C(C)C)[nH]c5c4)ccc2-3)[nH]1)C(C)C | Genotype 3 | - | HCV replicon | 0.041 µM
CN(C)CCN(C)c1cccc(Cl)c1-c1cc(-c2cccc(NC(=O)C(Cl)Cl)c2)on1 | - | - | - | ≤10 µM
Cc1ncsc1C(=O)Nc1ccc(-c2cc(N(C(=O)C3CCC(C)CC3)C(C)C)c(C(=O)O)s2)cc1 | 1b | - | - | <0.5 µM
NS(=O)(=O)c1ccc(CCNc2ncnc3c2cnn3-c2ccccc2Cl)cc1 | - | - | HUH 9B | <1 µM
Cc1cc(OCCN2CCOCC2)cc(C)c1-c1cc(-c2cccc(NC(=O)C(Cl)Cl)c2)on1 | - | - | - | ≤10 µM
CC(C)(c1ccc(F)cc1)c1nc(-c2cn(Cc3ccc(F)cc3)c3cc(F)c(F)cc3c2=O)no1 | 1b | - | - | >10 µM
CCOc1cc(F)ccc1-c1oc2cc(-c3c(C)noc3C)c(OC)cc2c1C(=O)NC | - | - | Huh7 | >30 µM
OC[C@H]1O[C@@H](n2cnc3c(/C=C/N4CCSC4)ncnc32)[C@H](O)[C@@H]1O | 1b | genotype 1b | Huh7 (MT-4) | 3 µM
CN1CCN(c2cc3c(cc2F)c(=O)c(-c2noc(Cc4ccc(F)cc4)n2)cn3Cc2ccc(F)cc2F)CC1 | 1b | - | - | <10 µM
CCOc1nc(N)nc2c1ncn2[C@@H]1O[C@@H]2COP(=O)(OC(C)C)O[C@H]2[C@@]1(C)F | 2a | 16 d | - | 0.73 µM
CCOc1nc(N)nc2ccc(-c3ccc(NC(=O)[C@@H](N)CO)cc3)nc12 | - | - | Huh7 | <0.3 µM
Cc1ccc(-n2ncc3c(Nc4cc(Cl)cc(Cl)c4)ncnc32)c(C)c1 | - | - | HUH 9B | <1 µM
C=CC1CC1(NC(=O)[C@@H]1C[C@@H](OC(=O)Nc2ccccc2N2CCCCC2)CN1C(=O)[C@@H](NC(=O)OC(C)(C)C)C(C)(C)C)C(=O)NS(=O)(=O)C1CC1 | 1b | - | Huh7 | <0.1 µM
Cc1ccc(-n2ncc3c(Nc4ccc(N5CCOCC5)c(F)c4)ncnc32)c(C)c1 | - | - | HUH 9B | <1 µM
CCn1ccc(C(=O)Nc2ccc(-c3cc(N(C(=O)C4CCC(C)CC4)C(C)C)c(C(=O)O)s3)cc2)n1 | 1b | - | - | <0.5 µM
O=C(Cc1ccc2c(c1)OCO2)N/N=C/c1ccccc1OS(=O)(=O)c1ccc(C(F)(F)F)cc1 | - | - | Huh7 | <5 µM
NS(=O)(=O)c1ccc(CNc2nc(NCC(F)(F)F)c3nc(-c4ccc(Cl)c(S(=O)(=O)NC5CCNCC5)c4)ccc3n2)cc1 | - | - | - | <0.1 µM
COc1ccccc1CC(=O)N/N=C/c1ccccc1OS(=O)(=O)c1ccc(C(F)(F)F)cc1 | - | - | Huh7 | 5–50 µM
CC1CCC(C(=O)N(c2cc(-c3ccc(NC(=O)c4ccn[nH]4)cc3)sc2C(=O)O)C(C)C)CC1 | 1a | - | - | <0.5 µM
COc1cccc(CC(=O)N/N=C/c2cccc(OC)c2OS(=O)(=O)c2ccc(C)cc2)c1 | - | - | Huh7 | 5–50 µM
C=CC1CC1(NC(=O)[C@@H]1C[C@@H](OC(=O)Nc2c(F)cccc2F)CN1C(=O)[C@@H](NC(=O)OC(C)(C)C)C(C)(C)C)C(=O)NS(=O)(=O)C1CC1 | 1b | - | Huh7 | >10 µM
CNC(=O)c1c(-c2ccc(F)cc2)oc2cc(-c3ncn[nH]3)c(OC)cc12 | - | - | Huh7 | <1 µM
CN1CCN(c2cc3c(cc2F)c(=O)c(-c2nnc(Cc4ccccc4)o2)cn3Cc2ccc(C(F)(F)F)cc2F)CC1 | 1b | - | - | <2 µM
COCCOc1nc(NCc2ccc(S(N)(=O)=O)cc2)nc2ccc(-c3ccc(F)cc3)nc12 | - | - | - | <0.1 µM
CC1CCC(C(=O)N(c2cc(-c3ccc(NC(=O)c4ccc(F)cc4)cc3)sc2C(=O)O)C(C)C)CC1 | 1a | - | - | <0.5 µM
O=C(Cc1cccc(Br)c1)N/N=C/c1ccccc1NS(=O)(=O)c1ccc(C(F)(F)F)cc1 | - | - | Huh7 | >50 µM
CC1CCC(C(=O)N(c2cc(-c3ccc(NC(=O)c4csc(N)n4)cc3)sc2C(=O)O)C(C)C)CC1 | 1a | - | - | <0.5 µM
O=C(N/N=C/c1ccccc1OS(=O)(=O)c1ccc(C(F)(F)F)cc1)c1ccccc1F | - | - | Huh7 | 5–50 µM
C=CC1CC1(NC(=O)[C@@H]1C[C@@H](OC(=O)Nc2ccc(F)c(F)c2F)CN1C(=O)[C@@H](NC(=O)OC(C)(C)C)C(C)(C)C)C(=O)NS(=O)(=O)C1CC1 | 1b | - | Huh7 | 1–10 µM
Cc1ccc(-n2ncc3c(Nc4ccc5[nH]ccc5c4)ncnc32)c(C)c1 | - | - | HUH 9B | 1–10 µM
O=C(Nc1cccc(-c2cc(-c3c(Cl)cccc3C3CC3)no2)c1)C(Cl)Cl | - | - | - | ≤10 µM
CNC(=O)c1c(-c2ccc(Br)cc2)oc2ccc(OC(C)C)cc12 | - | - | Huh7 | <10 µM
O=C(Cc1ccc(F)c(C(F)(F)F)c1)N/N=C/c1ccccc1OS(=O)(=O)c1ccc(C(F)(F)F)cc1 | - | - | Huh7 | <5 µM
CC(C)(c1ccccc1)c1nc(-c2cn(Cc3ccc(C(F)(F)F)cc3)c3cc(N4CCSCC4)c(F)cc3c2=O)no1 | 1b | - | - | <2 µM
CCOc1nc(NCc2ccc(S(N)(=O)=O)cc2)nc2ccc(-c3ccc(NC(N)=O)cc3)nc12 | - | - | - | <0.1 µM
O=C(Nc1cccc(-c2cc(-c3c(Cl)cccc3-n3ccnc3)no2)c1)C(Cl)Cl | - | - | - | ≤10 µM
C=CC1CC1(NC(=O)[C@@H]1C[C@@H](OC(=O)Nc2ccccc2-n2nccn2)CN1C(=O)[C@@H](NC(=O)OC(C)(C)C)C(C)(C)C)C(=O)NS(=O)(=O)C1CC1 | 1b | - | Huh7 | 0.1–1 µM
Cc1c(C(=O)Nc2ccc(-c3cc(N(C(=O)C4CCC(C)CC4)C(C)C)c(C(=O)O)s3)cc2)cnn1C | 1a | - | - | >0.5 µM
OC[C@H]1O[C@@H](n2cnc3c(CCSC4CCCCC4)ncnc32)[C@H](O)[C@@H]1O | 1b | genotype 1b | Huh7 (MT-4) | >100 µM
CNC(=O)c1c(-c2ccc(F)cc2)oc2cc(-c3cc(C4CC4)on3)c(OC(C)C)cc12 | - | - | Huh7 | <1 µM
Cc1ccc(-n2ncc3c(Nc4ccc(C#N)c(Cl)c4)ncnc32)c(C)c1 | - | - | HUH 9B | 1–10 µM
CCOc1nc(NCc2ccc(F)cc2)nc2ccc(-c3ccc(NC(=O)C4CC4)cc3)nc12 | - | - | - | <0.1 µM

Repeating the first 8 entries:

smiles	strain or isolate	conditions	cell line	value
COc1ccc2c(c1)c(=O)c(-c1noc(Cc3ccccc3)n1)cn2CC1CCCCC1	1b	-	-	>10 µM
NC(=O)c1ccc(-c2ccc3nc(NCc4ccc(F)cc4)nc(NCC(F)(F)F)c3n2)cc1	-	-	-	<0.1 µM
O=C(N/N=C/c1ccccc1OS(=O)(=O)c1ccc(C(F)(F)F)cc1)c1ccccc1Cl	-	-	Huh7	<5 µM
COc1cc2c(=O)c(-c3nnc(Cc4ccc(Cl)cc4)o3)cn(Cc3ccc(Cl)cc3)c2cc1OC	1b	-	-	>10 µM
CNC(=O)c1c(-c2ccc(F)cc2)oc2ccc(OC(C)C)cc12	-	-	Huh7	<30 µM
Cc1ccc(-n2ncc3c(NC(=O)Nc4ccc(Br)cc4)ncnc32)c(C)c1	-	-	HUH 9B	1–10 µM
CCOc1nc(NCc2ccc(F)cc2)nc2ccc(-c3ccc4c(c3)CC(=O)N4)nc12	-	-	-	<0.1 µM
CSc1cccc(F)c1-c1cc(-c2cccc(NC(=O)C(Cl)Cl)c2)on1	-	-	-	≤10 µM